Reference: US11021444B2, “Antiviral compounds” (priority 2013, dated 2021)
Like-named read-outs stand apart in the source and are kept apart here.

Chains of the proteins cited; added tags and fusions are not shown.
UniProt P28887, whole entry: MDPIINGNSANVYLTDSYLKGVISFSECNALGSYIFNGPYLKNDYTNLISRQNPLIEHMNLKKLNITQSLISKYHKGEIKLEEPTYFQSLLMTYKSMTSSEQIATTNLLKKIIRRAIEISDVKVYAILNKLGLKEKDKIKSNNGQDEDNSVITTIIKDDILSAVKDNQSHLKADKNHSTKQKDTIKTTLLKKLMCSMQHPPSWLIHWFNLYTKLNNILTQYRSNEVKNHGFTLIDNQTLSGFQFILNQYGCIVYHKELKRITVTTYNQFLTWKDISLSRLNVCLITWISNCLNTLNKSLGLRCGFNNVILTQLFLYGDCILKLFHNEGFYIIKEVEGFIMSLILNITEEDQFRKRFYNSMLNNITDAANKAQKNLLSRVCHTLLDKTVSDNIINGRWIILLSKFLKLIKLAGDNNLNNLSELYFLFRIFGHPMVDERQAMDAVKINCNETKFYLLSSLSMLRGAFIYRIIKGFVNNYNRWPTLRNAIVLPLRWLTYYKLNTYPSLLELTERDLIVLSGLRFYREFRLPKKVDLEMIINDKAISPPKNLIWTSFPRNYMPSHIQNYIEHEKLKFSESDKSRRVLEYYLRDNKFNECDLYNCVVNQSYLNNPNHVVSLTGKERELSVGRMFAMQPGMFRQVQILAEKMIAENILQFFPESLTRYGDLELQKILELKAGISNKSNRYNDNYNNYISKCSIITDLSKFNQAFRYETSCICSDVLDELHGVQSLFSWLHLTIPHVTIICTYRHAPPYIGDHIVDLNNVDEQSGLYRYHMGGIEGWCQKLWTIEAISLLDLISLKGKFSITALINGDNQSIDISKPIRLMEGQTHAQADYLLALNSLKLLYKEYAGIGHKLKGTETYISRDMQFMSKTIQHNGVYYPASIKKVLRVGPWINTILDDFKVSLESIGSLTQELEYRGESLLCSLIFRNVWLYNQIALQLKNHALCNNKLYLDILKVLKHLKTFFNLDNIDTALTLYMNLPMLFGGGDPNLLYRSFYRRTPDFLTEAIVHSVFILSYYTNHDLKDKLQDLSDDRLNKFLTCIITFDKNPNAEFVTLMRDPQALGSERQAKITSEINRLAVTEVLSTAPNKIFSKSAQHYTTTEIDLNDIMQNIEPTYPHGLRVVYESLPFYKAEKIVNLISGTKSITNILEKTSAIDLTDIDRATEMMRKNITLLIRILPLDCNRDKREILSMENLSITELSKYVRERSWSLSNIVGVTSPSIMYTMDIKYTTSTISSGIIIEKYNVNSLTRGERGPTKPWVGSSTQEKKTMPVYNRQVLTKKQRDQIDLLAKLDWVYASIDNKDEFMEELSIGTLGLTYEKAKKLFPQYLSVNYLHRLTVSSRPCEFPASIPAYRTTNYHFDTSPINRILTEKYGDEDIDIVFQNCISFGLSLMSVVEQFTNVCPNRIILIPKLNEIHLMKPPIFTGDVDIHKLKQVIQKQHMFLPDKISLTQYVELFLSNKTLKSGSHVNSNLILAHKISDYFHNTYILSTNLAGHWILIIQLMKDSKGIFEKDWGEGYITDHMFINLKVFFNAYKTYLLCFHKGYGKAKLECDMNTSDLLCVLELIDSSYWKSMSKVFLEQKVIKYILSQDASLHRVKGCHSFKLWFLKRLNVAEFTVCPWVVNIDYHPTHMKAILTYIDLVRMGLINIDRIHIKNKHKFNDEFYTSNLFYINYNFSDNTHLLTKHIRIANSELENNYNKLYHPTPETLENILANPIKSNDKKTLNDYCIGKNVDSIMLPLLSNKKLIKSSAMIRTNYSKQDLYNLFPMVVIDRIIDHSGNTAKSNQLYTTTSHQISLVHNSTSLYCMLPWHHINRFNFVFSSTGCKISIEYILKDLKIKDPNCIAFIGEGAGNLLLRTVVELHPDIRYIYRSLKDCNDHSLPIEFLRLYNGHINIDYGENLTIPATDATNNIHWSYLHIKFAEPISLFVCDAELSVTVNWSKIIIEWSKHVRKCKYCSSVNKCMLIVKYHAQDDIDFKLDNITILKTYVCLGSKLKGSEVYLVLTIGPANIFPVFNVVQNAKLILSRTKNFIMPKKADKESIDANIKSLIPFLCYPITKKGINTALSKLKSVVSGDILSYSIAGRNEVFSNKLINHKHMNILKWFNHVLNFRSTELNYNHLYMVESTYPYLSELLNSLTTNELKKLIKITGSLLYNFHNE
UniProt P03421, whole entry partner: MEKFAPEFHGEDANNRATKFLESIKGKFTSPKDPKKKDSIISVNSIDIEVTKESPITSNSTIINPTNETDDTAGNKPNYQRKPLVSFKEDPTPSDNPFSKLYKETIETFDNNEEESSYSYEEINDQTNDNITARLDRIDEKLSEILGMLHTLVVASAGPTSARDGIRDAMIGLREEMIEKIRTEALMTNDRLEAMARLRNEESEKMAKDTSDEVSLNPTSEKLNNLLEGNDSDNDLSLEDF

How the values were obtained:
[1] = target: recombinant RSV complex (Human respiratory syncytial virus A, UniProt P28887); experiment: RSV Polymerase Inhibition Assay; settings: read-out: IC50 (compound concentration at which the enzyme-catalyzed rate was reduced by 50%), 10 nM recombinant RSV complex, 2 h at 30° C., Tables E, F and G list compounds by IC50 band
[2] = test system: RSV replicon
[3] = test system: Respiratory Syncytial Virus (RSV) long strain; settings: read-out: 50% effective concentration (EC50); HEp-2 cells infected with RSV long strain, 5 days, CCK-8 readout; Tables A and B list compounds by EC50 band
[4] = read-out: EC50, the concentration of the drug required for reducing RSV replicon RNA by 50%, 395 HeLa or APC126 cells, value given by membership in Table H / Table I

| SMILES | IC50 [1] [nM] | EC50 [2, 4] [nM] | EC50 [3] [nM] | IC50 ([1]; tested form: HCl) [nM] | EC50 ([2]; read-out: EC50, the concentration of the drug required for reducing RSV replicon RNA by 50%, 395 HeLa or APC126 cells, value given by membership in Table H / Table I, tested form: HCl) [nM] |
| --- | --- | --- | --- | --- | --- |
| COc1cc(C(=O)NCC(=O)c2cc3c(c(-c4c[nH]c5c(F)cccc45)n2)OCC3(C)C)ccc1OCCO | < 1000 | < 1000 |  |  |  |
| COc1cc(C(=O)NCC(C)(O)c2ccc(OC)c(-c3c[nH]c4c(F)cccc34)n2)ccc1OCCF (stereo not drawn) | < 1000 | < 1000 | < 1000 |  |  |
| COc1cc(C(=O)NCC(O)(c2c[nH]nn2)c2ccc(OC)c(-c3ccc(F)c(Cl)c3)n2)ccc1OCCO (stereo not drawn) | < 1000 |  |  |  |  |
| COc1cc(C(=O)NCC(O)(c2cc(C(C)(C)N)cc(-c3ccc(F)c(Cl)c3)n2)C(F)(F)F)ccc1OC1CC1 (stereo not drawn) |  |  |  | < 1000 | < 1000 |
| COc1cc(C(=O)NCC(O)(c2cc(C(C)(C)NCC(N)=O)cc(-c3ccc(F)c(Cl)c3)n2)C(F)(F)F)ccc1OC1CC1 (stereo not drawn) | < 1000 | < 1000 | < 1000 |  |  |
| COc1cc(C(=O)NCC(O)(c2cc3c(c(-c4ccc(F)c(Cl)c4)n2)OCC3(C)C)C(F)(F)F)ccc1CC1CCNC1=O (stereo not drawn) | < 1000 |  | < 1000 |  |  |
| COc1cc(C(=O)NCC(C)(O)c2ccc(OC)c(-c3ccc(F)c(Cl)c3)n2)ccc1OC[C@H](C)O (single isomer, unassigned) | < 1000 | < 1000 | < 1000 |  |  |
| COc1cc(C(=O)NCC(O)(c2cc3c(c(-c4ccc(F)c(Cl)c4)n2)OCC3(C)C)C(F)(F)F)ccc1OC1CC1 (single isomer, unassigned) | < 1000 |  |  |  |  |
| CCOc1ccc(C(=O)NCC(C)(O)c2ccc(OC)c(-c3c[nH]c4c(F)cccc34)n2)cc1OC (single isomer, unassigned) [116b] | < 1000 | < 1000 | < 1000 |  |  |
| COc1cc(C(=O)NCC(C)(O)c2ccc(OC)c(-c3c[nH]c4c(F)cccc34)n2)ccc1OCCO (single isomer, unassigned) [117b] | < 1000 | < 1000 | < 1000 |  |  |
| COc1cc(C(=O)NCC(C)(O)c2ccc(OC)c(-c3ccc(F)c(Br)c3)n2)ccc1OCCF (single isomer, unassigned) [118b] | < 1000 | < 1000 | < 1000 |  |  |
| COc1cc(C(=O)NCC(C)(O)c2ccc(OC)c(-c3ccc(F)c(Cl)c3)n2)ccc1OCCO (single isomer, unassigned) [120b] | < 1000 | < 1000 | < 1000 |  |  |
| COc1cc(C(=O)NCC(O)(Cn2cccn2)c2ccc(OC)c(-c3ccc(F)c(Cl)c3)n2)ccc1OCCO (single isomer, unassigned) [185] | < 1000 |  | < 1000 |  |  |
| C#CC(O)(CNC(=O)c1ccc(OCCF)c(OC)c1)c1ccc(OC)c(-c2ccc(F)c(Cl)c2)n1 (single isomer, unassigned) [413] | < 1000 | < 1000 | < 1000 |  |  |
| COc1cc(C(=O)NCC(C)(O)c2ccc(OC)c(-c3ccc(F)c(Cl)c3)n2)ccc1OC[C@@H](C)O (single isomer, unassigned) [415] | < 1000 | < 1000 | < 1000 |  |  |
| COc1cc(C(=O)NCC(C)(O)c2ccc(OC)c(-c3c[nH]c4c(F)cccc34)n2)ccc1OCC(N)=O (single isomer, unassigned) [421] | < 1000 | < 1000 | < 1000 |  |  |
| COc1cc(C(=O)NCC(O)(c2cc3c(c(-c4ccc(F)cc4)n2)OCC3(C)N)C(F)(F)F)ccc1OC1CC1 (single isomer, unassigned) [510] | < 1000 | < 1000 | < 1000 |  |  |
| COc1cc(C(=O)NCC(O)(c2cc3c(c(-c4ccc(F)cc4)n2)OCC3(C)N)C(F)(F)F)ccc1OC1CC1 (single isomer, unassigned) [511] | < 1000 | < 1000 |  |  |  |
